From paper PMC8719060, “Characterization of a Novel Chromosome-Encoded AmpC β-Lactamase Gene, blaPRC–1, in an Isolate of a Newly Classified Pseudomonas Species, Pseudomonas wenzhouensis A20, From Animal Farm Sewage” (Frontiers in Microbiology, 2021) come the findings set out here.

Amino acid sequences for entries named in this document (tags omitted). Residues count along the entry.
UniProt Z9ZEF5EQX5, 23-379 limits assumed: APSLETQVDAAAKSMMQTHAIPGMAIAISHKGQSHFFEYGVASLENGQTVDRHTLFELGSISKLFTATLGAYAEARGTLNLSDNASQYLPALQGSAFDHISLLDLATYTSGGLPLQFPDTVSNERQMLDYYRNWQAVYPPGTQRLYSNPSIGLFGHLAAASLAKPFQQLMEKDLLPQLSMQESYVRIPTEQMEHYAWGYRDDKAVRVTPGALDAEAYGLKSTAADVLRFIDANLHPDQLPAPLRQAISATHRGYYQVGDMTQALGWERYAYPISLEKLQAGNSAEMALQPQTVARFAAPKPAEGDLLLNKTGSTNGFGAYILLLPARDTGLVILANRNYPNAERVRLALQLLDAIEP

The assay addresses PRC-1 (Pseudomonas wenzhouensis, UniProt Z9ZEF5EQX5). The assay can be described thus: initial-rate beta-lactam hydrolysis, UV-VIS spectrophotometry. The format is biochemical. The following applies: read-out: Km or Ki (μM)^a; 10 mM phosphate pH 7.4, 37°C.

As to `CC1(C)S[C@@H]2[C@H](NC(=O)[C@H](N)c3ccccc3)C(=O)N2[C@H]1C(=O)O`, the Michaelis constant (Km) (usually the concentration of substrate that gives half-maximal velocity) came to 65 µM.
